Measurements published in US20060287319A1, “Anti-viral compositions comprising heterocyclic substituted phenyl furans and related compounds” (priority 2005, published 2006).

Legend:
HIV-1 IIIB = conditions: selectivity index
Protocol: Assessment of anti-HIV-1 infectivity. The inhibitory activity of compounds on infection by laboratory-adapted HIV-1 strains was determined as previously described (34). […] For the time-of-addition assay, compounds were added at various time post-infection. Then the culture supernatants were removed and fresh media were added. On the fourth day post-infection, 100 μl of culture supernatants were collected from each well, mixed with equal volumes of 5% Triton X-100 and assayed for p24 antigen, which was quantitated by ELISA (23). Briefly, the wells of polystyrene plates (Immulon 1B, Dynex Technology, Chantilly, Va.) were coated with HIV immunoglobulin (HIVIG), which was prepared from plasma of HIV-seropositive donors with high neutralizing titers against HIV-1IIIB as previously described (36) in 0.085 M carbonate-bicarbonate buffer (pH 9.6) at 4° C. overnight, followed by washes with PBS-T buffer (0.01M PBS containing 0.05% Tween-20) and blocking with PBS containing 1% dry fat-free milk (Bio-Rad Inc., Hercules, Calif.). Virus lysates were added to the wells and incubated at 37° C. for 1 h. […] Reactions were terminated by addition of 1N H2SO4. […] Recombinant protein p24 (US Biological, Swampscott, Mass.) was included for establishing standard dose response curve.

MT-2 cells = conditions: read-out: Cytotoxicity CC50 (μM) (M ± SD)
Protocol: Detection of in vitro cytotoxicity. The in vitro cytotoxicity of compounds for MT-2 cells was measured by a colorimetric method using XTT tetrazolium dye as previously described (21). Briefly, 100 μl of a compound at a graded concentration was added to equal volume of cells (5×10^5/ml) in a well of 96-well plates. After incubation at 37° C. for 4 days, XTT (1 mg/ml; […]; PolySciences, Inc., Warrington, Pa.) was added. Four hours later, the soluble intracellular formazan was quantitated colorimetrically at 450 nm with a reference at 570 nm.

| Compound | SI (CC50/EC50) (HIV-1 IIIB) | CC50 (MT-2 cells) |
| --- | --- | --- |
| O=C(O)c1cccc(-c2ccc(/C=C3\SC(=S)N(Cc4ccccc4)C3=O)o2)c1 [NB182] | >457.14 | > 379 µM |
| O=C(O)c1cc(-c2ccc(/C=C3\SC(=O)N(Cc4ccccc4)C3=O)o2)ccc1Cl [NB192] | – | > 363 µM |
| O=C(O)c1cc(-c2ccc(/C=C3\SC(=S)N(Cc4ccccc4)C3=O)o2)ccc1Cl [NB217] | 163.2 | 166 ± 17.7 µM |
